{
  "source": "patent US20230045284",
  "key": {"[1]": {"target": "GST-Cdc42, P60953"}, "[2]": {"target": "GST-RhoA, P61586"}, "[3]": {"target": "T1, GST-RalA, P11233", "T1 chain": "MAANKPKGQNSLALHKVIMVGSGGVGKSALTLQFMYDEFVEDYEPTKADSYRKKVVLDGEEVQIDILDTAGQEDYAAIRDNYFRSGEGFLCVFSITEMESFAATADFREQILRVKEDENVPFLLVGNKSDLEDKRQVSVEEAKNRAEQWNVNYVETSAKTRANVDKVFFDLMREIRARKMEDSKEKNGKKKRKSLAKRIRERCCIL"}},
  "data": [
    {"protein": "Recombinant 6xHis-tagged DUF5Vv (rDUF5Vv; V. vulnificus CMCP6 MARTXVv Q3596-L4089) (protein) QELKERAKVFAKPIGASYQGILDQLDLVHQAKGRDQIAASFELNKKINDYIAEHPTSGRNQALTQLKEQVTSALFIGKMQVAQAGIDAIAQTRPELAARIFMVAIEEANGKHVGLTDMMVRWANEDPYLAPKHGYKGETPSDLGFDAKYHVDLGEHYADFKQWLETSQSNGLLSKATLDESTKTVHLGYSYQELQDLTGAESVQMAFYFLKEAAKKADPISGDSAEMILLKKFADQSYLSQLDSDRMDQIEGIYRSSHETDIDAWDRRYSGTGYDELTNKLASATGVDEQLAVLLDDRKGLLIGEVHGSDVNGLRFVNEQMDALKKQGVTVIGLEHLRSDLAQPLIDRYLATGVMSSELSAMLKTKHLDVTLFENARANGMRIVALDANSSARPNVQGTEHGLMYRAGAANNIAVEVLQNLPDGEKFVAIYGKAHLQSHKGIEGFVPGITHRLDLPALKVSDSNQFTVEQDDVSLRVVYDDVANKPKITFKGSL", "values": [
      {"measurement": "in vitro cleavage of rGST-GTPase, SDS-PAGE", "setting": "[1]", "value": "None of the other GTPase was cleaved by DUF5Vv"},
      {"measurement": "in vitro cleavage of rGST-GTPase, SDS-PAGE", "setting": "[2]", "value": "None of the other GTPase was cleaved by DUF5Vv"},
      {"measurement": "in vitro cleavage of rGST-GTPase, SDS-PAGE", "setting": "[3]", "value": "None of the other GTPase was cleaved by DUF5Vv"}
    ]}
  ]
}
